Measurements reported in PubChem BioAssay AID624099 (ICCB-Longwood, 2012).
Purpose: 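Host factors E2 relies on to silence an HPV18 LCR reporter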 (primary screen). Cell system: human C33A cervical carcinoma cells (HPV-negative) stably expressing BPV1 E2 and an HPV18 LCR luciferase reporter. Knock-down reagent: siRNA pool against human genes, 40 nM. Time to read-out: 72 h. Detection: 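HPV18 LCR reporter light per well, converted to plate-wise z-scores that exclude control wells, and averaged over triplicate plates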. Reading the numbers: mean z-score and z-score: higher = stronger reporter signal, weaker E2 silencing. Rule for the call: 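Mean z ≥ 2 together with z ≥ 2 in two or more of the three replicates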.
This is an unselected part of about 21,000 reagents. 497 of them (2.4%) count as active. 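Higher z means weaker E2 silencing; only reporter increases were scored, and knock-downs that hurt cell survival may mask genuine repressor factors.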 Reagents against one gene are numbered here.

target	reagent no.	mean z-score	z-score, replicate A	z-score, replicate B	z-score, replicate C	activity call
HOTAIR (HOX transcript antisense RNA)	1	2.43	2.09	2.81	2.38	active
LOC389290 (retired record)	1	0.81	1.21	0.61	0.62	inactive
ADAMTS14 (ADAM metallopeptidase with thrombospondin type 1 motif 14)	1	-0.19	-0.11	-0.12	-0.35	inactive
GNGT1 (G protein subunit gamma transducin 1)	1	0.55	0.93	0.5	0.22	inactive
ACOT9 (acyl-CoA thioesterase 9)	1	0.12	0.09	-0.05	0.31	inactive
LPAR3 (lysophosphatidic acid receptor 3)	1	0.24	-0.06	0.3	0.47	inactive
GLG1 (golgi glycoprotein 1)	1	-1.45	-1.56	-1.34	-1.47	inactive
PTPN4 (protein tyrosine phosphatase non-receptor type 4)	1	0.19	0.26	0.1	0.22	inactive
AHSP (alpha hemoglobin stabilizing protein)	1	-0.46	0.26	-0.82	-0.83	inactive
ZNF407-AS1 (ZNF407 antisense RNA 1)	1	0.65	0.79	0.47	0.69	inactive
ELF4 (E74 like ETS transcription factor 4)	1	-0.81	-0.77	-0.67	-0.97	inactive
LY6G5B (lymphocyte antigen 6 family member G5B)	1	0.21	0.38	0.07	0.18	inactive
ERVMER34-1 (endogenous retrovirus group MER34 member 1, envelope)	1	-0.04	0.13	-0.42	0.16	inactive
AGT (angiotensinogen)	1	0.1	-0.01	0.26	0.06	inactive
LOC392559 (retired record)	1	-0.6	-0.25	-0.78	-0.76	inactive
APH1B (aph-1B gamma-secretase subunit)	1	0.67	0.52	0.76	0.71	inactive
APH1B (aph-1B gamma-secretase subunit)	2	-0.2	-0.2	-0.56	0.15	inactive
GUCA2B (guanylate cyclase activator 2B)	1	2.25	2.22	1.98	2.54	active
UHRF1 (ubiquitin like with PHD and ring finger domains 1)	1	-1.17	-1.15	-1.28	-1.07	inactive
WDR11 (WD repeat domain 11)	1	-1.55	-1.7	-1.29	-1.66	inactive
PPEF1 (protein phosphatase with EF-hand domain 1)	1	0.92	0.83	1.12	0.8	inactive
LOC339583 (retired record)	1	0.48	0.64	0.3	0.49	inactive
USP24 (ubiquitin specific peptidase 24)	1	-0.92	-0.84	-0.82	-1.1	inactive
SLC8A1	1	-0.53	-0.8	-0.44	-0.36	inactive
CES1P2 (carboxylesterase 1 pseudogene 2)	1	0.49	0.37	0.53	0.56	inactive
MRTFA (myocardin related transcription factor A)	1	1.08	0.98	0.99	1.26	inactive
FLJ44477 (retired record)	1	0.03	-0.12	0.18	0.03	inactive
HMGA2 (high mobility group AT-hook 2)	1	2.25	2.73	1.88	2.14	active
SPATA20 (spermatogenesis associated 20)	1	-0.24	-0.19	0.01	-0.55	inactive
XKR6 (XK related 6)	1	1.1	1.42	0.94	0.93	inactive
XKR6 (XK related 6)	2	-0.62	-0.58	-0.7	-0.57	inactive
MTPAP (mitochondrial poly(A) polymerase)	1	-1.34	-1.56	-1.39	-1.07	inactive
POU5F2 (POU domain class 5, transcription factor 2)	1	1.59	1.68	1.52	1.57	inactive
CCDC85B (coiled-coil domain containing 85B)	1	-0.96	-0.75	-0.9	-1.23	inactive
PLA2G4A (phospholipase A2 group IVA)	1	0.06	-0.26	0	0.43	inactive
CDK10 (cyclin dependent kinase 10)	1	-1.22	-1.13	-1.42	-1.11	inactive
GRAMD2B (GRAM domain containing 2B)	1	-2.5	-2.24	-2.45	-2.8	inactive
LOC387833 (retired record)	1	1.26	1.04	1.36	1.39	inactive
LMX1B (LIM homeobox transcription factor 1 beta)	1	-0.46	-0.52	-0.53	-0.32	inactive

Records listed so far with an active call:
target	reagent no.	mean z-score	z-score, replicate A	z-score, replicate B	z-score, replicate C	activity call
HOTAIR (HOX transcript antisense RNA)	1	2.43	2.09	2.81	2.38	active
GUCA2B (guanylate cyclase activator 2B)	1	2.25	2.22	1.98	2.54	active
HMGA2 (high mobility group AT-hook 2)	1	2.25	2.73	1.88	2.14	active
